Experimental data: ChEMBL document CHEMBL1275243 (2010)

Assays:
Bacillus anthracis [1] = experiment: Antimicrobial activity against Bacillus anthracis 240 assessed as change in fluorescence threshold cycle at 8 ug/ml after 4 hrs by real-time PCR viability assay relative to control
Bacillus anthracis [2] = experiment: Antimicrobial activity against Bacillus anthracis A0465 assessed as change in fluorescence threshold cycle at 1 ug/ml after 4 hrs by real-time PCR viability assay relative to control
Bacillus anthracis [3] = experiment: Antimicrobial activity against Bacillus anthracis A0465 assessed as change in fluorescence threshold cycle at 2 ug/ml after 4 hrs by real-time PCR viability assay relative to control
Bacillus anthracis [4] = experiment: Antimicrobial activity against Bacillus anthracis A0488 assessed as change in fluorescence threshold cycle at 1 ug/ml after 4 hrs by real-time PCR viability assay relative to control
Bacillus anthracis [5] = experiment: Antimicrobial activity against Bacillus anthracis A0149 assessed as change in fluorescence threshold cycle at 8 ug/ml after 4 hrs by real-time PCR viability assay relative to control
Bacillus anthracis [6] = experiment: Antimicrobial activity against Bacillus anthracis A0488 assessed as change in fluorescence threshold cycle at 0.12 ug/ml after 4 hrs by real-time PCR viability assay relative to control
Bacillus anthracis [7] = experiment: Antimicrobial activity against Bacillus anthracis A0462 assessed as change in fluorescence threshold cycle at 16 ug/ml after 4 hrs by real-time PCR viability assay relative to control
Bacillus anthracis [8] = experiment: Antimicrobial activity against Bacillus anthracis A0102 assessed as change in fluorescence threshold cycle at 8 ug/ml after 4 hrs by real-time PCR viability assay relative to control
Bacillus anthracis [9] = experiment: Antimicrobial activity against Bacillus anthracis A0102 assessed as change in fluorescence threshold cycle at 2 ug/ml after 4 hrs by real-time PCR viability assay relative to control
Bacillus anthracis [10] = experiment: Antimicrobial activity against Bacillus anthracis A0419 assessed as change in fluorescence threshold cycle at 4 ug/ml after 4 hrs by real-time PCR viability assay relative to control
Bacillus anthracis [11] = experiment: Antimicrobial activity against Bacillus anthracis A0462 assessed as change in fluorescence threshold cycle at 0.12 ug/ml after 4 hrs by real-time PCR viability assay relative to control
Bacillus anthracis [12] = experiment: Antimicrobial activity against Bacillus anthracis A0264 assessed as change in fluorescence threshold cycle at 16 ug/ml after 4 hrs by real-time PCR viability assay relative to control
Bacillus anthracis [13] = experiment: Antimicrobial activity against Bacillus anthracis A0188 assessed as change in fluorescence threshold cycle at 1 ug/ml after 4 hrs by real-time PCR viability assay relative to control
Bacillus anthracis [14] = experiment: Antimicrobial activity against Bacillus anthracis A03768 assessed as change in fluorescence threshold cycle at 4 ug/ml after 4 hrs by real-time PCR viability assay relative to control
Bacillus anthracis [15] = experiment: Antimicrobial activity against Bacillus anthracis A0462 assessed as change in fluorescence threshold cycle at 8 ug/ml after 4 hrs by real-time PCR viability assay relative to control
Bacillus anthracis [16] = experiment: Antimicrobial activity against Bacillus anthracis A0248 assessed as change in fluorescence threshold cycle at 0.5 ug/ml after 4 hrs by real-time PCR viability assay relative to control
Bacillus anthracis [17] = experiment: Antimicrobial activity against Bacillus anthracis A0248 assessed as change in fluorescence threshold cycle at 0.12 ug/ml after 4 hrs by real-time PCR viability assay relative to control
Bacillus anthracis [18] = experiment: Antimicrobial activity against Bacillus anthracis A0102 assessed as change in fluorescence threshold cycle at 16 ug/ml after 4 hrs by real-time PCR viability assay relative to control
Bacillus anthracis [19] = experiment: Antimicrobial activity against Bacillus anthracis A0248 assessed as change in fluorescence threshold cycle at 2 ug/ml after 4 hrs by real-time PCR viability assay relative to control
Bacillus anthracis [20] = experiment: Antimicrobial activity against Bacillus anthracis A0149 assessed as change in fluorescence threshold cycle at 0.12 ug/ml after 4 hrs by real-time PCR viability assay relative to control
Bacillus anthracis [21] = experiment: Antimicrobial activity against Bacillus anthracis A0149 assessed as change in fluorescence threshold cycle at 2 ug/ml after 4 hrs by real-time PCR viability assay relative to control
Bacillus anthracis [22] = experiment: Antimicrobial activity against Bacillus anthracis A03768 assessed as change in fluorescence threshold cycle at 8 ug/ml after 4 hrs by real-time PCR viability assay relative to control
Bacillus anthracis [23] = experiment: Antimicrobial activity against Bacillus anthracis A0488 assessed as change in fluorescence threshold cycle at 0.25 ug/ml after 4 hrs by real-time PCR viability assay relative to control
Bacillus anthracis [24] = experiment: Antimicrobial activity against Bacillus anthracis A0264 assessed as change in fluorescence threshold cycle at 2 ug/ml after 4 hrs by real-time PCR viability assay relative to control
Bacillus anthracis [25] = experiment: Antimicrobial activity against Bacillus anthracis A0264 assessed as change in fluorescence threshold cycle at 0.12 ug/ml after 4 hrs by real-time PCR viability assay relative to control
Bacillus anthracis [26] = experiment: Antimicrobial activity against Bacillus anthracis A0419 assessed as change in fluorescence threshold cycle at 2 ug/ml after 4 hrs by real-time PCR viability assay relative to control
Bacillus anthracis [27] = experiment: Antimicrobial activity against Bacillus anthracis A0188 assessed as change in fluorescence threshold cycle at 4 ug/ml after 4 hrs by real-time PCR viability assay relative to control
Bacillus anthracis [28] = experiment: Antimicrobial activity against Bacillus anthracis A0419 assessed as change in fluorescence threshold cycle at 1 ug/ml after 4 hrs by real-time PCR viability assay relative to control
Bacillus anthracis [29] = experiment: Antimicrobial activity against Bacillus anthracis A0293 assessed as change in fluorescence threshold cycle at 16 ug/ml after 4 hrs by real-time PCR viability assay relative to control

Row | SMILES | deltaCT (Bacillus anthracis [1]) | deltaCT (Bacillus anthracis [2]) | deltaCT (Bacillus anthracis [3]) | deltaCT (Bacillus anthracis [4]) | deltaCT (Bacillus anthracis [5]) | deltaCT (Bacillus anthracis [6]) | deltaCT (Bacillus anthracis [7]) | deltaCT (Bacillus anthracis [8]) | deltaCT (Bacillus anthracis [9]) | deltaCT (Bacillus anthracis [10]) | deltaCT (Bacillus anthracis [11]) | deltaCT (Bacillus anthracis [12]) | deltaCT (Bacillus anthracis [13]) | deltaCT (Bacillus anthracis [14]) | deltaCT (Bacillus anthracis [15]) | deltaCT (Bacillus anthracis [16]) | deltaCT (Bacillus anthracis [17]) | deltaCT (Bacillus anthracis [18]) | deltaCT (Bacillus anthracis [19]) | deltaCT (Bacillus anthracis [20]) | also measured
1 | O=C(O)c1cn(C2CC2)c2cc(N3CCNCC3)c(F)cc2c1=O [CIPROFLOXACIN] | 0.81 | 8.24 | 8.31 | 8.35 | 0.44 | 7.76 | 1.97 | 0.97 | 8.22 | 7.05 | 8.61 | 8.06 | 8.54 | 7.41 | 0.31 | 0.53 | 8.09 | 8.74 | 6.69 | 4.65 | deltaCT (Bacillus anthracis [21]): 7.27; deltaCT (Bacillus anthracis [22]): 0; deltaCT (Bacillus anthracis [23]): 7.28; deltaCT (Bacillus anthracis [24]): 7.34; deltaCT (Bacillus anthracis [25]): 7.29; deltaCT (Bacillus anthracis [26]): 7.03; deltaCT (Bacillus anthracis [27]): 7.25; deltaCT (Bacillus anthracis [28]): 8.6; deltaCT (Bacillus anthracis [29]): 7.48
2 | C[C@H]1c2cccc(O)c2C(=O)C2=C(O)[C@]3(O)C(=O)C(C(N)=O)=C(O)[C@@H](N(C)C)[C@@H]3[C@@H](O)[C@@H]21.O [DOXYCYCLINE] | 7.86 | 7.71 | 6.77 | 8.12 | 8.35 | 7.18 | 8 | 7.72 | 6.37 | 7.9 | 7.66 | 5.45 | 8.02 | 8.1 | 7.91 | 7.52 | 6.95 | 0.42 | 7.29 | 6.99 | deltaCT (Bacillus anthracis [21]): 8.53; deltaCT (Bacillus anthracis [22]): 7.69; deltaCT (Bacillus anthracis [23]): 6.93; deltaCT (Bacillus anthracis [24]): 8.79; deltaCT (Bacillus anthracis [25]): 6.95; deltaCT (Bacillus anthracis [26]): 9.27; deltaCT (Bacillus anthracis [27]): 7.55; deltaCT (Bacillus anthracis [28]): 8.33; deltaCT (Bacillus anthracis [29]): 2.46
